Results of unrelated studies side by side (data: NIAID ChemDB).

All rows: whole-cell or culture tests; species: Mycobacterium tuberculosis

MIC bound: limit read from a one-dose screen. a–b is a range or a potency band. Conditions beyond the fields shown may differ between rows. Inhibition is in % at the dose shown (toxicity tests: loss of growth or viability). Zones are inhibition diameters on agar. An empty or dashed field is not shown. A number after MIC or MFC names an inhibition level or a share of isolates. ECn is the concentration giving n% inhibition of infection, replication or growth.

compound	measure	dose	read by	strain or isolate	value
Cc1ccc2nc(SCc3ccc([N+](=O)[O-])cc3)[nH]c2c1	MIC			MY 332/88	32 µM
CC[C@H]1OC(=O)[C@H](C)[C@@H](O[C@H]2C[C@@](C)(OC)[C@@H](O)[C@H](C)O2)[C@H](C)[C@@H](O[C@@H]2O[C@H](C)C[C@H](N(C)C)[C@H]2O)[C@](C)(OC)C[C@@H](C)C(=O)[C@H](C)[C@@H](O)[C@]1(C)O	MIC			90-0240 (drug-susceptible)	10 µg/mL
CC[C@@H](CO)NCCN[C@@H](CC)CO	MIC		BACTEC	H37Rv	20 µg/mL
Cc1ccc(-n2c(=O)oc3ccc(Cl)cc3c2=S)cc1	MIC			My 331/88	1 µM
Cc1ccc(NC2=CC(=O)C(=O)c3ccccc32)cc1C	inhibition	6.25 µg/mL	resazurin	H37Rv	100%
COc1ccc(/C=N/NC(=O)c2cc(-c3ccc(F)cc3F)ccc2O)cc1	MIC		resazurin	H37Rv	>6.25 µg/mL
C.C=C1C[C@@]23CCC4[C@@](C)(CCC[C@@]4(C)C(=O)O)C2CC[C@]1(O[C@@H]1O[C@H](COC(=O)O)[C@@H](OC(=O)O)[C@H](OC(=O)O)[C@H]1OC1O[C@H](COC(C)=O)[C@@H](OC(=O)O)[C@H](OC(=O)O)[C@H]1OC(=O)O)C3	MIC			H37Rv	5 µg/mL
CCC(C(=O)NN)c1ccccc1	inhibition	0.25 µg/mL			60%
CC1(C)C=Cc2c(ccc3c2O[C@H](c2ccc(O)cc2)CC3)O1	MIC			H37Rv	50 µg/mL
O=C(O)c1ccc(O)c2ncccc12	MIC50			M 607	10 µg/mL
Cc1ccc(C)c(NC(=O)c2cccc3nc4ccccc4nc23)c1	MIC			H37Rv 27294	0.78 µg/mL
CCc1cccc(C(C)C)c1NC(=O)C(=O)Nn1c(=S)[nH]c2ccccc2c1=O	inhibition	12.5 µg/mL	BACTEC	H37Rv	-12%
NNC(=O)c1ccncc1	MIC			H37Rv	1 µg/mL
COc1ccc(CSc2nc3ccc(C)cc3[nH]2)cc1	MIC			MY 332/88	32 µM
O=CN(O)CC(=O)[O-].[Na+]	inhibition	12.5 µg/mL	BACTEC	H37Rv	2%
O=[N+]([O-])c1ccc(CSc2nnc(-c3ccc([N+](=O)[O-])o3)s2)cc1	MIC			H37Rv	3.13 µg/mL
Cc1ccc2nc(SCc3ccc(Cl)cc3)[nH]c2c1	MIC			MY 332/88	32 µM
OC1C2COc3nc4ccccc4n3C(O2)C1O	MIC bound			H37Rv	>6.25 µg/mL
O=C(O)c1c(=O)c2cc([N+](=O)[O-])c(N3CCN(C(=O)c4ccco4)CC3)nc2n2c1sc1ccccc12	MIC100			H37Rv (MTB)	6.03 µM
Cc1n[nH]c(=S)n1/N=C/c1ccc(Br)cc1F	zone	10000 µg/mL	agar diffusion / visual reading	H37Rv	9 mm
Brc1ccc(-c2ccc3nnnn3n2)s1	MIC bound		BACTEC	H37Rv	>12.5 µg/mL
Cc1ccc(-n2c(=S)oc3ccc(Cl)cc3c2=S)cc1	MIC			My 331/88	0.5 µM
CN1CCN(c2nc3c(cc2[N+](=O)[O-])c(=O)c(C(=O)O)c2sc4ccccc4n23)CC1c1ccccc1	MIC100			H37Rv (MTB)	12.12 µM
NNC(=O)c1ccncc1	MIC		broth dilution / resazurin	H37Rv	0.91 µg/mL
CC(C)(C)NC(=O)C1c2ccccc2CCN1c1nc2c(cc1[N+](=O)[O-])c(=O)c(C(=O)O)c1sc3ccccc3n12	MIC100			H37Rv (MTB)	1.36 µM
CCC/C=C/C=C/C(=O)O[C@H]1[C@H](C)[C@@]2(O)[C@@H]3C=C(C)C(=O)[C@H]3CC(COC(C)=O)=C[C@@H]2[C@H]2C(C)(C)[C@@]12OC(C)=O	MIC bound		BACTEC	H37Rv	>12.5 µg/mL
O=C(O)c1c(=O)c2cc([N+](=O)[O-])c(N3CCSCC3)nc2n2c1sc1ccccc12	MIC100			H37Rv (MTB)	1.76 µM
O=c1oc2ccc(Cl)cc2c(=S)n1-c1cccc(Cl)c1	MIC			My 331/88	1 µM
O=C(O)c1c(=O)c2cc([N+](=O)[O-])c(N3CCC4(CC3)OCCO4)nc2n2c1sc1ccccc12	MIC100			H37Rv (MTB)	0.19 µM
CSC(=S)NCC(=O)O	MIC		BACTEC	H37Rv	≥128 µg/mL
Cc1n[nH]c(=S)n1/N=C/c1cccc(Cl)c1F	zone	10000 µg/mL	agar diffusion / visual reading	H37Rv	13.5 mm
COC(=O)c1nc2n[nH]c(N)c2c2c1CCCCCCCCCC2	inhibition	12.5 µg/mL	BACTEC	H37Rv	7%
Cc1ccnc2c(O)cccc12	MIC50			H37Rv	0.5–1 µg/mL
O=C(NN=Cc1cccs1)c1ccccc1Sc1ccccc1	MIC90		resazurin	H37Rv	>50 µg/mL
CC1CN(c2nc3c(cc2[N+](=O)[O-])c(=O)c(C(=O)O)c2sc4ccccc4n23)CC(C)O1	MIC100			H37Rv (MTB)	1.72 µM
O=C(NN=Cc1ccccc1)c1ccccc1Sc1ccccc1	MIC90		resazurin	H37Rv	>50 µg/mL
O=C(N/N=C/c1ccccc1)c1cc(-c2ccc(F)cc2F)ccc1O	MIC		BACTEC	H37Rv	>6.25 µg/mL
C.C=C1C[C@@]23CCC4[C@@](C)(CCC[C@@]4(C)C(=O)NNC(=O)c4ccncc4)C2CC[C@]1(O[C@@H]1O[C@H](COC(=O)O)[C@@H](OC(=O)O)[C@H](OC(=O)O)[C@H]1OC1O[C@H](COC(C)=O)[C@@H](OC(=O)O)[C@H](OC(=O)O)[C@H]1OC(=O)O)C3	MIC			H37Rv	5 µg/mL
NCCCCCNC(=O)c1csc(Nc2ccccc2)n1	inhibition	6.25 µg/mL	resazurin		66%
Cc1nc2scc(-c3ccco3)c2c(=O)n1NC(=O)c1ccc(F)cc1F	MIC			CNCTC MY331/88	4 µM
Cc1n[nH]c(=S)n1/N=C/c1ccc(F)cc1Cl	zone	10000 µg/mL	agar diffusion / visual reading	H37Rv	12 mm
Oc1c(Br)cc(Br)c2cccnc12	MIC50			H37Rv	5 µg/mL
Cc1nc2scc(-c3ccco3)c2c(=O)n1/N=C/C1CCCCC1	MIC			CNCTC MY331/88	64 µM
COc1ccc(CC2c3ccccc3CCN2c2nc3c(cc2[N+](=O)[O-])c(=O)c(C(=O)O)c2sc4ccccc4n23)cc1	MIC100			H37Rv (MTB)	5.24 µM
Cc1cc(C)c(/C=N/NC(=O)c2cc(-c3ccc(F)cc3F)ccc2O)c(C)c1	MIC		resazurin	H37Rv	>6.25 µg/mL
CSc1nnc(-c2ccc([N+](=O)[O-])o2)s1	inhibition	6.25 µg/mL		H37Rv	99%
Cc1ccc2nc(SCc3c(F)cccc3Cl)[nH]c2c1	MIC			MY 332/88	16 µM
COC(=O)c1cc(-c2ccco2)c2c(=O)n(-c3ccccc3)[nH]c2n1	inhibition	12.5 µg/mL	BACTEC	H37Rv	8%
O=[N+]([O-])c1ccc(-c2nnc(S(=O)(=O)Cc3ccc(Cl)cc3)s2)o1	inhibition	6.25 µg/mL		H37Rv	13%
O=C(O)c1c(=O)c2cc([N+](=O)[O-])c(N3CCC(n4c(=O)[nH]c5cc(Cl)ccc54)CC3)nc2n2c1sc1ccccc12	MIC100			H37Rv (MTB)	0.66 µM
COC1=C(Br)[C@@H](O)[C@]2(C=C1Br)CC(C(=O)NCCCCNC(=O)C1=NO[C@]3(C=C(Br)C(OC)=C(Br)[C@@H]3O)C1)=NO2	MIC			H37Rv (streptomycin-resistant)	12.5 µg/mL
Cc1nc2scc(-c3ccco3)c2c(=O)n1NC(=O)c1ccco1	MIC			CNCTC MY331/88	96 µM
Cc1cnc2c(O)cccc2c1	MIC50			H37Rv	0.5–1 µg/mL
O=C(N/N=C/c1cccc(F)c1)c1cc(-c2ccc(F)cc2F)ccc1O	MIC		resazurin	H37Rv	>6.25 µg/mL
O=C(Nc1ccc(OC(F)(F)F)cc1)c1cccc2nc3ccccc3nc12	MIC			H37Rv 27294	0.39 µg/mL
S=c1oc2ccc(Cl)cc2c(=S)n1-c1ccc(Br)cc1	MIC			My 331/88	0.5 µM
O=C(Nc1ccccc1)c1cccc2nc3ccccc3nc12	MIC			H37Rv 27294	3.12 µg/mL
O=C(NCCCCCNCc1cccc(Cl)c1)c1csc(Nc2ccc(Cl)cc2)n1	inhibition	6.25 µg/mL	resazurin		99%
CCCNC(=O)Nc1ccc(C)c(Cl)c1	inhibition	12.5 µg/mL	BACTEC	H37Rv	77%
O=C(N/N=C/CCCCCCCc1c([N+](=O)[O-])ccc(O)c1C(=O)O)c1ccncc1	MIC			H37Rv	0.5–10 µg/mL
NCCO/C=C/[C@H](N)C(=O)O	inhibition	12.5 µg/mL	BACTEC	H37Rv	-1%
Cc1ccc(NC(=O)Cc2cccs2)cc1	MIC		resazurin	ATCC 27294	100 µg/mL
COC(=O)C1=NC(=S)N=C(C(=O)OC)C1(C)C(=O)c1ccc(Cl)cc1	inhibition	6.25 µg/mL	resazurin	H37Rv	11%
COc1ccccc1NC(=O)c1cccc2nc3ccccc3nc12	MIC			H37Rv 27294	0.78 µg/mL
Cc1c(O)c(=O)ccn1CCCl	inhibition	12.5 µg/mL	BACTEC	H37Rv	-9%
O=c1oc2ccc(Cl)cc2c(=O)n1-c1ccccc1	MIC			My 331/88	31 µM
CCN(CC)Cc1cc(C)c(O)c(N=Nc2cccc3ccccc23)c1C	inhibition	6.25 µg/mL		H37Rv	12%
CCCCCNNC(=O)c1ccncc1	MIC			H37Rv	5 µg/mL
NC(=O)c1ncc(-c2ccc(Cl)cc2)[nH]c1=O	inhibition	12.5 µg/mL	BACTEC	H37Rv	18%
O=C(O)Cc1ccc(O)c2ncccc12	MIC50			H37Rv	0.1–0.5 µg/mL
S=c1oc2ccc(Cl)cc2c(=S)n1-c1ccc(Cl)cc1	MIC			My 331/88	1 µM
CC(=O)O.CC(O)C(N)C(=O)NC(Cc1ccc(O)cc1)C(=O)NC(CO)C(=O)NC(CCCCN)C(=O)O	inhibition	12.8 µg/mL	BACTEC	H37Rv	29%
COc1ccc2c(c1)c(CC(=O)NN)c(C)n2C(=O)c1ccc(Cl)cc1	EC50				<0.125 µg/mL
Cc1n[nH]c(=S)n1/N=C/c1ccc(F)c(F)c1F	zone	10000 µg/mL	agar diffusion / visual reading	H37Rv	13 mm
O=C1O/C(=C(/C(=O)O)c2ccc(O)cc2)C(O)=C1c1cc2c3c(c(O)cc(C4=C(O)/C(=C(\C(=O)O)c5ccc(O)cc5)OC4=O)c3c1)OC2=O	inhibition	12.5 µg/mL	BACTEC	H37Rv	4%
NNC(=O)c1ccncc1	MIC			Isolate 20	<2 µg/mL
Cc1ccc(NC(=O)c2cccc3nc4ccccc4nc23)cc1	MIC			H37Rv 27294	0.78 µg/mL
O=C(N/N=C/c1ccc(Cl)cc1Cl)c1cc(-c2ccc(F)cc2F)ccc1O	inhibition	6.25 µg/mL	resazurin	H37Rv	21%
CSC(=S)N/N=C(\C)c1ccc(OCc2ccc(F)cc2F)cc1	MIC		resazurin / absorbance	H37Rv	>100 µM
NCCCCNC(=O)c1csc(Nc2ccc(Cl)cc2)n1	inhibition	6.25 µg/mL	resazurin		13%
O=C1NC(=O)C(=O)NC1=O	MIC bound		BACTEC	H37Rv	>12.5 µg/mL
O=C(N/N=C/c1c(O)cccc1O)c1cccnc1.[Cl][Ni][Cl]	MIC		broth dilution / resazurin	H37Rv	0.66 µg/mL
C=C(C)C1Cc2c(cc(O)c3c(=O)c4c(oc23)C(O)Oc2cc(OC)c(OC)cc2-4)O1	MIC bound		BACTEC	H37Rv	>12.5 µg/mL
O=C(NN=Cc1ccncc1)c1ccccc1Sc1ccccc1	MIC90		resazurin	H37Rv	>50 µg/mL
Cc1ccc(-n2cnc3c(N/N=C4\SCC(=O)N4c4ccccc4)ncnc32)cc1	MIC bound		BACTEC	H37Rv	>12.5 µg/mL
Cc1n[nH]c(=S)n1/N=C/c1ccc(F)c(Br)c1	zone	10000 µg/mL	agar diffusion / visual reading	H37Rv	11.25 mm
Cc1nc2scc(-c3ccco3)c2c(=O)n1/N=C/c1ccc(Cl)cc1	MIC			CNCTC MY331/88	9 µM

A second listing of 12 rows from above:

| compound | measure | dose | read by | strain or isolate | value |
|---|---|---|---|---|---|
| CCc1cccc(C(C)C)c1NC(=O)C(=O)Nn1c(=S)[nH]c2ccccc2c1=O | inhibition | 12.5 µg/mL | BACTEC | H37Rv | -12% |
| COc1ccc2c(c1)c(CC(=O)NN)c(C)n2C(=O)c1ccc(Cl)cc1 | EC50 |  |  |  | <0.125 µg/mL |
| Cc1n[nH]c(=S)n1/N=C/c1cccc(Cl)c1F | zone | 10000 µg/mL | agar diffusion / visual reading | H37Rv | 13.5 mm |
| COc1ccc(/C=N/NC(=O)c2cc(-c3ccc(F)cc3F)ccc2O)cc1 | MIC |  | resazurin | H37Rv | >6.25 µg/mL |
| COC(=O)c1cc(-c2ccco2)c2c(=O)n(-c3ccccc3)[nH]c2n1 | inhibition | 12.5 µg/mL | BACTEC | H37Rv | 8% |
| Cc1ccc(C)c(NC(=O)c2cccc3nc4ccccc4nc23)c1 | MIC |  |  | H37Rv 27294 | 0.78 µg/mL |
| O=C(O)c1c(=O)c2cc([N+](=O)[O-])c(N3CCSCC3)nc2n2c1sc1ccccc12 | MIC100 |  |  | H37Rv (MTB) | 1.76 µM |
| O=C(O)c1ccc(O)c2ncccc12 | MIC50 |  |  | M 607 | 10 µg/mL |
| C.C=C1C[C@@]23CCC4[C@@](C)(CCC[C@@]4(C)C(=O)O)C2CC[C@]1(O[C@@H]1O[C@H](COC(=O)O)[C@@H](OC(=O)O)[C@H](OC(=O)O)[C@H]1OC1O[C@H](COC(C)=O)[C@@H](OC(=O)O)[C@H](OC(=O)O)[C@H]1OC(=O)O)C3 | MIC |  |  | H37Rv | 5 µg/mL |
| COc1ccc(CC2c3ccccc3CCN2c2nc3c(cc2[N+](=O)[O-])c(=O)c(C(=O)O)c2sc4ccccc4n23)cc1 | MIC100 |  |  | H37Rv (MTB) | 5.24 µM |
| NNC(=O)c1ccncc1 | MIC |  | broth dilution / resazurin | H37Rv | 0.91 µg/mL |
| O=C(NCCCCCNCc1cccc(Cl)c1)c1csc(Nc2ccc(Cl)cc2)n1 | inhibition | 6.25 µg/mL | resazurin |  | 99% |